Patent US11813270B2, “Nitric oxide-releasing antibacterial compounds, formulations, and methods pertaining thereto” (KNOW BIO, LLC, priority 2020, dated 2023)
“And” between values parts separate entries of the source, which are not always exact repeats. Equal entries are not always repeated.

Legend:
[1] = tested on: Mycobacterium abscessus; test: MIC/MBC assay (CLSI method); format: cell-based
[2] = tested on: Pseudomonas aeruginosa; test: MIC/MBC assay (CLSI method); format: cell-based; details: for MBC / MIC: Pseudomonas aeruginosa ATCC 19143
[3] = tested on: Staphylococcus aureus (MRSA); test: MIC/MBC assay (CLSI method); format: cell-based; details: for MBC, Rep 1 / MBC, Rep 2 / MIC, Rep 1 / MIC, Rep 2: Clinical isolate
[4] = tested on: P. aeruginosa biofilms; details: exposure 18-24 h
[5] = tested on: P. aeruginosa; test: Time kill assay
[6] = tested on: Acetinobacter baumannii; test: MIC/MBC assay (CLSI method); details: Acetinobacter baumannii N0075; Carb-R, XDR
[7] = tested on: Burkolderia cenocepacia; test: MIC/MBC assay (CLSI method); details: Burkolderia cenocepacia N0034; Clinical Isolate
[8] = tested on: Escherichia coli; test: MIC/MBC assay (CLSI method); details: Escherichia coli N0077; Carb-R, 3rd-gen Ceph-R, ESBL+, MDR
[9] = tested on: Haemophilus influenzae; test: MIC/MBC assay (CLSI method); details: Haemophilus influenzae N0097; Chloramphenicol-R, Tet-R, and Amp-R
[10] = tested on: Staphylococcus aureus (MSSA); test: MIC/MBC assay (CLSI method); details: Staphylococcus aureus (MSSA) N0007; Wichita; ATCC 29213
[11] = tested on: Streptococcus pyogenes; test: MIC/MBC assay (CLSI method); details: Streptococcus pyogenes N0098; Erythromycin-R
[12] = tested on: P. aeruginosa; test: Anti-microbial activity (MBC) under aerobic and anaerobic growth conditions, 21 strains; details: 21 strains of P. aeruginosa; two strains could not be grown anaerobically
[13] = M. abcessus N0010, Clinical Isolate
[14] = M. abcessus N0016, Clinical Isolate
[15] = M. abcessus N0017, Clinical Isolate, listed as VT-20-110, sodium salt
[16] = M. abcessus N0018, Clinical Isolate
[17] = M. abcessus N0019, Clinical Isolate
[18] = M. abcessus N0020, Clinical Isolate
[19] = M. abscessus N0010, clinical, unit not given
[20] = M. abscessus N0016, clinical, unit not given
[21] = M. abscessus N0017, clinical, unit not given
[22] = M. abscessus N0018, clinical, unit not given
[23] = M. abscessus N0019, clinical, unit not given
[24] = M. abscessus N0020, clinical, unit not given
[25] = M. abscessus N0046, unit not given
[26] = Mycobacterium abcessus N0019, Clinical Isolate
[27] = P. aeruginosa N0049, PAK, Lab strain, unit not given
[28] = P. aeruginosa phenotype ATCC, obligate aerobe
[29] = P. aeruginosa phenotype MDR, CarbR, TobraR.
[30] = P. aeruginosa phenotype Not MDR, CarbS, TobraS. Mucoid
[31] = P. aeruginosa phenotype XDR, CarbR, TobraI.
[32] = P. aeruginosa phenotype XDR, CarbR, TobraR.
[33] = P. aeruginosa phenotype XDR, TobraR, CarbR. (first of three such strains, r19)
[34] = P. aeruginosa phenotype XDR, TobraR, CarbR. (second of three such strains, r21)
[35] = P. aeruginosa phenotype XDR, TobraR, CarbR. (third of three such strains, r23)
[36] = listed as NCT-19-096, sodium salt
[37] = listed as NCT-19-168, sodium salt
[38] = Pseudomonas aeruginosa N0049, PAK WT
[39] = S. aureus N0040, MRSA, unit not given
[40] = Staphylococcus aureus (MRSA) N0040, MDR, MRSA, Vanco-S

methane trisdiazeniumdiolate sodium salt
MBC [1, 13]: 1 mg/mL | MIC [1, 13]: 0.25 mg/mL | MBC [1, 14]: 1 mg/mL | MIC [1, 14]: 0.25 mg/mL | MBC [1, 15]: 2 mg/mL and 1 mg/mL | MIC [1, 15]: 0.5 mg/mL and 0.25 mg/mL | MBC [1, 16]: 1 mg/mL | MIC [1, 16]: 0.25 mg/mL | MBC [1, 17]: 1 mg/mL | MIC [1, 17]: 0.25 mg/mL | MBC [1, 18]: 1 mg/mL | MIC [1, 18]: 0.25 mg/mL | MBC ([1]; M. abcessus N0046, Ordway): 1 mg/mL | MIC ([1]; M. abcessus N0046, Ordway, listed as VT-20-110, sodium salt): 0.5 mg/mL and 0.25 mg/mL | MBC [1, 19]: 1 | MIC [1, 19]: 0.25 | MBC [1, 20]: 1 | MIC [1, 20]: 0.25 | MBC [1, 21]: 1 | MIC [1, 21]: 0.25 | MBC [1, 22]: 1 | MIC [1, 22]: 0.25 | MBC [1, 23]: 1 | MIC [1, 23]: 0.25 | MBC [1, 24]: 1 | MIC [1, 24]: 0.25 | MBC [1, 25]: 1 | MIC [1, 25]: 0.25 | effectiveness at killing bacteria relative to cis-DMP/NO ([1]; M. abscessus strains of Table 14): four times as effective | MBC, Rep 1 [1, 26]: 1000 µg/mL | MBC, Rep 2 [1, 26]: 1000 µg/mL | MIC, Rep 1 [1, 26]: 250 µg/mL | MIC, Rep 2 [1, 26]: 250 µg/mL | concentration resulting in a 3-log reduction of bacterial survival (MBC) ([1]; all 9 strains of Mycobacterium abscessus tested): 1 mg/ml | MBC lower than the MBC of the MD3 NO-lib ([2]; P. aeruginosa): 64 × | MBC, Rep 1 [2, 27]: 0.125 | MBC, Rep 2 [2, 27]: 0.125 | MIC, Rep 1 [2, 27]: 0.125 | MIC, Rep 2 [2, 27]: 0.0625 | MBC, rep 1 [2, 28]: 125 µg/mL | MBC, rep 2 [2, 28]: 125 µg/mL | MIC, rep 1 [2, 28]: 63 µg/mL | MIC, rep 2 [2, 28]: 63 µg/mL | MBC, rep 1 [2, 29]: 125 µg/mL | MBC, rep 2 [2, 29]: 125 µg/mL | MIC, rep 1 [2, 29]: 63 µg/mL | MIC, rep 2 [2, 29]: 125 µg/mL | MBC, rep 1 [2, 30]: 125 µg/mL | MBC, rep 2 [2, 30]: 125 µg/mL | MIC, rep 1 [2, 30]: 63 µg/mL | MIC, rep 2 [2, 30]: 63 µg/mL | MBC, rep 1 ([2]; P. aeruginosa phenotype PAK WT): 125 µg/mL | MBC, rep 2 ([2]; P. aeruginosa phenotype PAK WT): 125 µg/mL | MIC, rep 1 ([2]; P. aeruginosa phenotype PAK WT): 125 µg/mL | MIC, rep 2 ([2]; P. aeruginosa phenotype PAK WT): 62.5 µg/mL | MBC, rep 1 [2, 31]: 125 µg/mL | MBC, rep 2 [2, 31]: 125 µg/mL | MIC, rep 1 [2, 31]: 63 µg/mL | MIC, rep 2 [2, 31]: 63 µg/mL | MBC, rep 1 [2, 32]: 125 µg/mL | MBC, rep 2 [2, 32]: 125 µg/mL | MIC, rep 1 [2, 32]: 63 µg/mL | MIC, rep 2 [2, 32]: 63 µg/mL | MBC, rep 1 [2, 33]: 125 µg/mL | MBC, rep 2 [2, 33]: 125 µg/mL | MIC, rep 1 [2, 33]: 63 µg/mL | MIC, rep 2 [2, 33]: 63 µg/mL | MBC, rep 1 [2, 34]: 125 µg/mL | MBC, rep 2 [2, 34]: 125 µg/mL | MIC, rep 1 [2, 34]: 63 µg/mL | MIC, rep 2 [2, 34]: 63 µg/mL | MBC, rep 1 [2, 35]: 125 µg/mL | MBC, rep 2 [2, 35]: 125 µg/mL | MIC, rep 1 [2, 35]: 125 µg/mL | MIC, rep 2 [2, 35]: 63 µg/mL | MBC [2, 36]: 49 µg/mL | MIC [2, 36]: 49 µg/mL | MBC [2, 37]: 62.5 µg/mL | MIC [2, 37]: 62.5 µg/mL | MBC, Rep 1 [2, 38]: 0.125 mg/mL | MBC, Rep 2 [2, 38]: 0.125 mg/mL | MIC, Rep 1 [2, 38]: 0.125 mg/mL | MIC, Rep 2 [2, 38]: 0.0625 mg/mL | concentration resulting in a 3-log reduction of bacteria (MBC) ([2]; all 9 strains of P. aeruginosa tested): 0.125 mg/ml | MIC against P. aeruginosa ([2]; combined composition of β-cyclodextrin and MTDD): 49 µg/mL | MBC lower than the MBC of the MD3 OG-lib ([3]; S. aureus): 16 × | MBC, Rep 1 [3, 39]: 0.25 | MBC, Rep 2 [3, 39]: 0.25 | MIC, Rep 1 [3, 39]: 0.125 | MIC, Rep 2 [3, 39]: 0.125 | MBC, Rep 1 [3, 40]: 0.25 mg/mL | MBC, Rep 2 [3, 40]: 0.25 mg/mL | MIC, Rep 1 [3, 40]: 0.125 mg/mL | MIC, Rep 2 [3, 40]: 0.125 mg/mL | concentration sufficient to eradicate bacteria biofilms (>3-log reduction) [4]: 0.391 mg/ml | concentration of PAK ([5]; 0.03125 mg/ml, pH 6.4, from 10^6, in three hours, stayed up to 25 hours (FIG. 14)): 10^2 CFU/ml | concentration of PAK ([5]; 0.03125 mg/ml, pH 7.4, from 10^6, in eight hours, stayed up to 25 hours (FIG. 14)): 10^2 CFU/ml | reduction of the concentration of PAK (CFU/ml) ([5]; 0.03125 mg/ml, pH 8.4 (FIG. 14)): insufficient to significantly reduce | concentration of PAK ([5]; 0.0625 mg/ml, pH 6.4, from 10^6, in two hours, stayed up to 25 hours (FIG. 13)): 10^2 CFU/ml | concentration of PAK ([5]; 0.125 mg/ml, pH 6.4, from 10^6, in two hours, stayed up to 25 hours (FIG. 12)): 10^2 CFU/ml | concentration of PAK ([5]; 0.125 mg/ml, pH 7.4, from 10^6, in four hours, stayed up to 25 hours (FIG. 12)): 10^2 CFU/ml | concentration of PAK ([5]; 0.125 mg/ml, pH 8.4, from 10^6, in six hours, stayed up to 25 hours (FIG. 12)): 10^5 CFU/ml | kill of bacteria at the lowest two doses evaluated ([5]; CAMHB, 37° C., survivors regrew by 24 hours): insufficient to kill all the bacteria | bacteria titers ([5]; PBS, 37° C., all concentrations used): below the limit of detection | time to kill all bacteria ([5]; all doses greater than or equal to 0.125 mg/ml): ≤ 8 h | concentration of PAK ([5]; dosage printed 0.125 mg/ml, pH 7.4, from 10^6, in six hours, stayed up to 25 hours (FIG. 13)): 10^2 CFU/ml | concentration of PAK ([5]; dosage printed 0.125 mg/ml, pH 8.4, at 25 hours (FIG. 13)): 10^6 CFU/ml | concentration of PAK ([5]; dosage printed 0.125 mg/ml, pH 8.4, from 10^6, in eight hours (FIG. 13)): 10^5 CFU/ml | MBC, Rep 1 [6]: 250 µg/mL | MBC, Rep 2 [6]: 250 µg/mL | MIC, Rep 1 [6]: 63 µg/mL | MIC, Rep 2 [6]: 63 µg/mL | MBC, Rep 1 [7]: 125 µg/mL | MBC, Rep 2 [7]: 125 µg/mL | MIC, Rep 1 [7]: 63 µg/mL | MIC, Rep 2 [7]: 63 µg/mL | MBC, Rep 1 [8]: 250 µg/mL | MBC, Rep 2 [8]: 250 µg/mL | MIC, Rep 1 [8]: 125 µg/mL | MIC, Rep 2 [8]: 125 µg/mL | MBC, Rep 1 [9]: 125 µg/mL | MBC, Rep 2 [9]: 250 µg/mL | MIC, Rep 1 [9]: 125 µg/mL | MIC, Rep 2 [9]: 125 µg/mL | MBC, Rep 1 [10]: 125 µg/mL | MBC, Rep 2 [10]: 125 µg/mL | MIC, Rep 1 [10]: 125 µg/mL | MIC, Rep 2 [10]: 125 µg/mL | MBC, Rep 1 [11]: 62.5 µg/mL | MBC, Rep 2 [11]: 125 µg/mL | MIC, Rep 1 [11]: 31.25 µg/mL | MIC, Rep 2 [11]: 31.25 µg/mL | activity under aerobic versus anaerobic growth conditions [12]: identical for 18 of the strains
